Measured values from several laboratories, pooled; numbers as filed in NIAID ChemDB.

Shared fields: tests in culture; organism: Mycobacterium avium complex; measure: MIC

An empty or dashed field is not shown. Conditions beyond the fields shown may differ between rows.

SMILES	strain or isolate	value
CCOCCN1CCN(c2cc(=O)c3nc4c(oc3c2)c2c(=O)c3c(O)c(C)c5c(c34)=C(O)[C@@](C)(O/C=C/[C@H](OC)[C@@H](C)[C@@H](OC(C)=O)[C@H](C)[C@H](O)[C@H](C)[C@@H](O)[C@@H](C)/C=C/C=C(/C)C(=O)N2)O5)CC1	31F093T	0.6 µg/mL
CN(CCO)c1ccc2c(=O)n3c(nc2c1)C(=O)c1cc(Cl)ccc1-3	19075	>25 µg/mL
CN(C)CC=C(c1ccc(Br)cc1)c1ccc(-c2ccc(Br)cc2)cc1		34 µg/mL
C[C@@H]1CN(c2c(F)c(N)c3c(=O)c(C(=O)O)cn(C4CC4)c3c2F)C[C@H](C)N1	LV-2	2 µg/mL
O=C1c2cc(/C=C/CCCCO)ccc2-n2c1nc1ccncc1c2=O	19075	5 µg/mL
CO[C@H]1/C=C/O[C@@]2(C)Oc3c(C)c(O)c4c(O)c(c5c(c4c3C2=O)NC2(CCN(CC(C)C)CC2)N=5)=NC(=O)/C(C)=C\C=C\[C@H](C)[C@H](O)[C@@H](C)[C@@H](O)[C@@H](C)[C@H](OC(C)=O)[C@@H]1C	31F093T	1.25 µg/mL
CCOC(=O)c1ccc2c(c1)C(=O)c1nc3ccccc3c(=O)n1-2	101	1 µg/mL
CC[C@H]1OC(=O)[C@H](C)[C@@H](OC2C[C@@](C)(OC)[C@@H](O)[C@H](C)O2)[C@H](C)[C@@H](O[C@@H]2O[C@H](C)C[C@H](N(C)C)[C@H]2O)C(C)(O)C[C@@H](C)/C(=N\OCCOc2ccccc2)[C@H](C)[C@@H](O)[C@]1(C)O	20092 (clarithromycin-resistant)	12.5 µg/mL
Cc1c(F)c(N2CCNC(C)C2)cc2c1c(=O)c(C(=O)O)cn2C1CC1	clinical strain 3	4 µg/mL
CN(C)C/C=C(\c1ccc(Cl)cc1)c1ccc(-c2ccc(Br)cc2)cc1		37.5 µg/mL
CO[C@H]1/C=C/O[C@@]2(C)Oc3c(C)c(O)c4c(=O)c(c5oc6cc(N7CCCN(C)CC7)cc(=O)c6nc5c4c3=C2O)NC(=O)/C(C)=C\C=C\[C@H](C)[C@H](O)[C@@H](C)[C@@H](O)[C@@H](C)[C@H](OC(C)=O)[C@@H]1C	31F093T	0.6 µg/mL
O=C1c2cc(F)ccc2-n2c1nc1cc(F)c(F)cc1c2=O	19075	0.13 µg/mL
CC[C@H]1OC(=O)[C@H](C)[C@@H](O[C@H]2C[C@@](C)(OC)[C@@H](OC(C)=O)[C@H](C)O2)[C@H](C)[C@@H](O[C@@H]2O[C@H](C)C[C@H](N(C)C)[C@H]2OC(=O)NNCc2cccnc2)C(C)(O)C[C@@H](C)/C(=N\OCCCC2CCCCC2)[C@H](C)[C@@H](O)[C@]1(C)O	20039 (clarithromycin-susceptible)	1.56 µg/mL
CO[C@H]1/C=C/O[C@@]2(C)Oc3c(C)c(O)c4c(=O)c(c5oc6cc(N7CCN(CCC(C)C)CC7)cc(=O)c6nc5c4c3=C2O)NC(=O)/C(C)=C\C=C\[C@H](C)[C@H](O)[C@@H](C)[C@@H](O)[C@@H](C)[C@H](OC(C)=O)[C@@H]1C	31F093T	0.15 µg/mL
CCCCCCCCO[C@H]1O[C@H](CO[C@H]2O[C@H](COC(=O)c3ccccc3)[C@@H](OC(=O)c3ccccc3)[C@@H]2OC(=O)c2ccccc2)[C@@H](O)[C@@H]1O	NJ211	>128 µg/mL
CCOC(=O)c1ccc2c(c1)C(=O)c1nc3ncccc3c(=O)n1-2	19075	5 µg/mL
CN(C)C/C=C(/c1ccc(-c2ccc(Br)cc2)cc1)c1ccc(S(C)(=O)=O)cc1		68 µg/mL
CC1CN(c2cc3c(cc2F)c(=O)c(C(=O)O)cn3-c2ccc(F)cc2F)CCN1	ATCC 35718	>8 µg/mL
CN(C)C/C=C(\c1ccc(O)cc1)c1ccc(-c2ccccc2)cc1		98 µg/mL
CCCCCCCCCCCCCCNNC(=O)O[C@H]1[C@H](O[C@@H]2[C@@H](C)[C@H](O[C@H]3C[C@@](C)(OC)[C@@H](OC(C)=O)[C@H](C)O3)[C@@H](C)C(=O)O[C@H](CC)[C@@](C)(O)[C@H](O)[C@@H](C)/C(=N/OCCCC3CCCCC3)[C@H](C)CC2(C)O)O[C@H](C)C[C@@H]1N(C)C	20092 (clarithromycin-resistant)	>50 µg/mL
C[C@H]1COc2c(N3CCN(C)CC3)c(F)cc3c(=O)c(C(=O)O)cn1c23	ATCC 35718	>8 µg/mL
C[C@@H]1CN(c2c(F)c(N)c3c(=O)c(C(=O)O)cn(C4CC4)c3c2F)C[C@H](C)N1	N-976 (HIV+)	0.5 µg/mL
CCCCCCCCCCCCO/N=C1\[C@H](C)CC(C)(O)[C@H](O[C@@H]2O[C@H](C)C[C@H](N(C)C)[C@H]2O)[C@@H](C)[C@H](OC2C[C@@](C)(OC)[C@@H](O)[C@H](C)O2)[C@@H](C)C(=O)O[C@H](CC)[C@@](C)(O)[C@H](O)[C@H]1C	20039 (clarithromycin-susceptible)	25 µg/mL
CO[C@H]1/C=C/O[C@@]2(C)Oc3c(C)c(O)c4c(O)c(c5c(c4c3C2=O)NC2(CCN(CC(C)C)CC2)N=5)=NC(=O)/C(C)=C\C=C\[C@H](C)[C@H](O)[C@@H](C)[C@@H](O)[C@@H](C)[C@H](OC(C)=O)[C@@H]1C	N-251 (HIV-)	0.8 µg/mL
CO[C@H]1/C=C/O[C@@]2(C)Oc3c(C)c(O)c4c(=O)c(c5oc6cc(N(C)CCN(C)C)cc(=O)c6nc5c4c3=C2O)NC(=O)/C(C)=C\C=C\[C@H](C)[C@H](O)[C@@H](C)[C@@H](O)[C@@H](C)[C@H](OC(C)=O)[C@@H]1C	31F093T	1.25 µg/mL
CO[C@H]1/C=C/O[C@@]2(C)Oc3c(C)c(O)c4c(=O)c(c5oc6cc(N7CCN(CC(C)C)CC7)cc(=O)c6nc5c4c3=C2O)NC(=O)/C(C)=C\C=C\[C@H](C)[C@H](O)[C@@H](C)[C@@H](O)[C@@H](C)[C@H](OC(C)=O)[C@@H]1C	N-981 (HIV+)	0.1 µg/mL
CC[C@H]1OC(=O)[C@H](C)[C@@H](O[C@H]2C[C@@](C)(OC)[C@@H](O)[C@H](C)O2)[C@H](C)[C@@H](O[C@@H]2O[C@H](C)C[C@H](N(C)C)[C@H]2O)[C@](C)(O)C[C@@H](C)C(=O)[C@H](C)[C@@H](O)[C@]1(C)O	ATCC 35718	>8 µg/mL
CN(C)C/C=C(\c1ccc(I)cc1)c1ccc(-c2ccc(Br)cc2)cc1		19 µg/mL
C[C@H]1C[C@H](N)CN1c1cc2c(cc1F)c(=O)c(C(=O)O)cn2-c1ccc(F)cc1F	ATCC 35718	>8 µg/mL
O=C(O)c1ccccn1	N-444	3000 µg/mL
CN(C)C/C=C(\c1ccc(N)cc1)c1ccc(-c2ccc(Br)cc2)cc1		19.6 µg/mL
COc1cccc2c(=O)n3c(nc12)C(=O)c1cc(I)ccc1-3	101	1 µg/mL
CCCCCCCCO[C@H]1O[C@H](CO[C@H]2O[C@H](CO)[C@@H](O)[C@@H]2O)[C@@H](OC)[C@@H]1OC	NJ211	>128 µg/mL

A second listing of 2 rows from above:

| SMILES | strain or isolate | value |
|---|---|---|
| CN(C)C/C=C(\c1ccc(O)cc1)c1ccc(-c2ccccc2)cc1 |  | 98 µg/mL |
| C[C@@H]1CN(c2c(F)c(N)c3c(=O)c(C(=O)O)cn(C4CC4)c3c2F)C[C@H](C)N1 | LV-2 | 2 µg/mL |